Pooled drug test results. Numbers come from NIAID ChemDB, via PubChem.

All rows: growth or infection tests; species: Mycobacterium tuberculosis

Rows are shuffled and stem from different studies. MIC bound: limit read from a one-dose screen. Percent inhibition refers to the dose given; in toxicity tests it is the harm to the cells. Fold resistance has wild type as its base. Blank or dashed fields: not listed here. ECn: concentration that inhibits the pathogen or its effect by n%. A number after MIC or MFC names an inhibition level or a share of isolates.

SMILES	read-out	strain or isolate	method	dose	mutations	result
O=[N+]([O-])c1ccc(Oc2cnc3nc(-c4cccc([N+](=O)[O-])c4)[nH]c3c2)cc1	MIC80	H37Rv	resazurin / absorbance	-	-	0.8 µM
COc1ccc(C2Oc3cc(F)ccc3C(=O)C2OC(C)=O)cc1	EC50	H37Rv	-	-	-	12.5 µg/mL
Cc1ccc(-c2cc(CN3CCOCC3)c(C)n2-c2ccc(F)cc2)cc1	MIC	H37Rv DR3	-	-	V681I S87P	5.4 µM
O=C(Cc1ccccc1)NNc1nc(NNC(=O)c2ccncc2)nc(Nc2ccccc2)n1	inhibition	-	BACTEC	0.5 µM	-	0%
CO[C@H]1/C=C/O[C@@]2(C)Oc3c(C)c(O)c4c(O)c(c(/C=N/N5C(C)CN(Cc6ccccc6)CC5C)c(O)c4c3C2=O)NC(=O)/C(C)=C\C=C\[C@H](C)[C@H](O)[C@@H](C)[C@@H](O)[C@@H](C)[C@H](OC(C)=O)[C@@H]1C	MIC	XDR-TB	agar	-	-	>64 µg/mL
NC(N)=NC(N)=Nc1cnccn1	MIC bound	H37Rv	resazurin	-	-	>6.25 µg/mL
O=[N+]([O-])c1ccc(CSc2nc3ccccc3[nH]2)c([N+](=O)[O-])c1	MIC	My 331/88	-	-	-	4 µM
O=c1sn(-c2ccc([N+](=O)[O-])cc2Cl)c(=O)n1C1Cc2ccccc2C1	MIC	H37Rv	broth dilution	-	-	12.5 µg/mL
O=C(Nc1ccc(Cl)cc1)c1cccnc1Cl	MIC	H37Rv	-	-	-	>20 µg/mL
COC(=O)C1=C(C)NC(Nc2ccc(F)c(Br)c2)=NC1c1ccc(Cl)cc1	MIC	H37Rv	agar	-	-	8 µg/mL
COc1ccc(CSc2nc3ccccc3[nH]2)cc1	MIC	My 331/88	-	-	-	125 µM
C=C(C)C1CC2(C)C(C)CC(O)CC2C(OC(=O)C=C(C)C)C1O	MIC bound	H37Rv	resazurin	-	-	>6.25 µg/mL
CCCCCCSc1nc2ccccc2[nH]1	MIC	My 331/88	-	-	-	62 µM
Cc1ccc2c(c1)C(=O)C(=O)N2CCCCN1CCN(c2ccnc3cc(Cl)ccc23)CC1	MIC99	MC2 6230	-	-	-	54.11 µM
C/C=C1/C(=O)O[C@]23C=C[C@@H]4C(C(=O)OC)=CO[C@H](O[C@@H]12)[C@@H]43	MIC	MDR4 clinical isolate	MTT	-	-	2 µg/mL
Cc1cc2cc3c4c(nn5cnnc5c4c2o1)-c1ccccc1CC3	MIC bound	H37Rv	BACTEC	-	-	>12.5 µg/mL
O=[N+]([O-])c1ccc(Oc2cnc3nc(-c4ccc(F)cc4O)[nH]c3c2)cc1	MIC80	H37Rv	resazurin / absorbance	-	-	1.5 µM
O=C1C2C(C(=O)N1CCN1CCOCC1)[C@H]1C=C[C@@H]2O1	MIC bound	H37Rv	BACTEC	-	-	>12.5 µg/mL
C[C@H]1COc2c(N3CCN(C)CC3)c(F)cc3c(=O)c(C(=O)O)cn1c23	MIC	INH-R1	resazurin	-	katG mutant isoniazid resistant	0.44 µg/mL
Cn1c(=O)sn(-c2ccccc2)c1=O	MIC	H37Rv	broth dilution	-	-	6.25 µg/mL
CCCCCCCCCCCCCCCCSc1nc2ccccc2[nH]1	MIC	My 331/88	-	-	-	>125 µM
CC(C)CN1C(=O)CS/C1=N\NC(=O)COc1cnccn1	MIC	H37Rv	-	-	-	135 µg/mL
COc1ccc2c(/C=C/c3ccc(OCCN4CCCC4)cc3)c(-c3ccccc3)c(=O)oc2c1	MIC100	H37Rv	-	-	-	>250 µg/mL
CCc1ccc([C@H]2C[C@@H](C(F)(F)F)n3ncc(C(=O)NCc4ccc5c(c4)OCO5)c3N2)cc1	fold resistance	H37Rv	fluorescence	-	MmpL3: Ser591Ile	30
C[C@]1(COc2ccc(N3CCC(Oc4ccc(OC(F)(F)F)cc4)CC3)cc2)Cn2cc([N+](=O)[O-])nc2O1	MIC90	31 strains (INH-susceptible)	-	-	-	0.012 µg/mL
C1CC2N=C3OCCC3N=C2O1	inhibition	H37Rv	BACTEC	12.5 µg/mL	-	9%
COc1ccc(-c2csc(/C(C#N)=C/c3ccc(O)c(OC)c3)n2)cc1	MIC	Clinical isolate	visual reading	-	-	1 µg/mL
CN(C)c1ccc(N=C2CC(=Nc3ccc(N(C)C)cc3)c3ccccc3C2=O)cc1	inhibition	H37Rv	BACTEC	12.5 µg/mL	-	85%
Cc1ccc(-c2cs/c(=N\NC(=O)COc3cnccn3)n2-c2ccc(Cl)cc2[N+](=O)[O-])cc1	MIC	H37Rv	-	-	-	4.5 µg/mL
Cc1c(CN2CCOCC2)cc(-c2ccc(C(C)C)cc2)n1-c1ccc(Cl)cc1	MIC90	H37Rv	-	-	-	24.74 µM
O=C1CC(c2ccccc2)Oc2cc(Br)ccc21	inhibition	-	-	12.5 µg/mL	-	15%
N#Cc1ccc(CSc2nc3ccccc3[nH]2)cc1	MIC	My 331/88	-	-	-	>62 µM
COC(=O)Cc1[nH]c(=O)[nH]c1C(N)=O	inhibition	-	resazurin	6.25 µg/mL	-	-15%
C[C@@H]1CN(c2c(F)c(N)c3c(=O)c(C(=O)O)cn(C4CC4)c3c2F)C[C@H](C)N1	MIC	H37Rv	broth dilution / visual reading	-	-	0.2 µg/mL
NNC(=O)c1ccncc1	MIC	H37Rv	-	-	-	>20 µg/mL
O=C(COc1cnccn1)N/N=c1\scc(-c2ccccc2)n1-c1ccc(Cl)cc1[N+](=O)[O-]	MIC	H37Rv	-	-	-	9 µg/mL
CCc1ccc(-c2cc(CN3CCOCC3)c(C)n2-c2ccc(F)cc2)cc1	MIC	H37Rv DR1	-	-	V681I	0.66 µM
Cc1ccc2c(c1)C(=O)C(=O)N2CC#CCN1CCN(c2ccnc3cc(Cl)ccc23)CC1	MIC99	MC2 6230	-	-	-	54.58 µM
O=c1sn(-c2ccc([N+](=O)[O-])cc2Cl)c(=O)n1CC1CC1	MIC	H37Rv	broth dilution	-	-	25 µg/mL
CCSc1nc2ccccc2[nH]1	MIC	My 331/88	-	-	-	>1000 µM
O=[N+]([O-])c1ccc(F)c(N=Cc2ccc([N+](=O)[O-])o2)c1	MIC	H37Rv	visual reading	-	-	8 µg/mL
O=[N+]([O-])c1ccc(Oc2cnc3nc(-c4ccccc4Cl)[nH]c3c2)cc1	MIC80	H37Rv	resazurin / absorbance	-	-	1.7 µM
CCOc1c(N=Nc2ccccc2OC)c(-c2ccccc2)nn1C(=S)S	inhibition	H37Rv	BACTEC	12.5 µg/mL	-	27%
O=C(O)C(=O)O.OC(CNCCc1ccccc1)CN1c2ccccc2Sc2ccccc21	MIC	XDR-83	resazurin	-	-	32 µg/mL
Nc1cccc(/C=C/C(=O)c2ccccc2O)c1	inhibition	-	-	12.5 µg/mL	-	11%
O=C(COc1cnccn1)N/N=C1\SCC(=O)N1c1ccc(Cl)cc1	MIC	H37Rv	-	-	-	102 µg/mL
Cc1cccnc1NC(=O)c1cccnc1Cl	MIC	H37Rv	-	-	-	>20 µg/mL
Cc1cccc(CSc2nc3ccccc3[nH]2)c1	MIC	My 331/88	-	-	-	>125 µM
COc1ccc(NC(=O)c2cccnc2Cl)cc1	MIC	H37Rv	-	-	-	>20 µg/mL
COC(=O)C1=C(C)NC(Nc2cccc(Br)c2)=NC1c1ccc(Cl)cc1	MIC	MDR-TB	agar	-	-	16 µg/mL
O=C1CC(c2ccc(Br)cc2)Oc2ccccc21	inhibition	-	-	12.5 µg/mL	-	26%
O=c1sn(-c2ccc(F)c(Cl)c2)c(=O)n1C1Cc2ccccc2C1	MIC	H37Rv	broth dilution	-	-	6.25 µg/mL
O=C(NNc1ccccc1[N+](=O)[O-])c1cccnc1Cl	MIC	H37Rv	-	-	-	>20 µg/mL
CCc1ccc(-c2cc(CN3CCOCC3)c(C)n2-c2ccc(OC)cc2)cc1	MIC90	H37Rv	-	-	-	54.66 µM
COC(=O)C1=C(C)NC(Nc2cccc(C#N)c2)=NC1c1ccc(Cl)cc1	MIC	MDR-TB	agar	-	-	32 µg/mL
Cc1cc(NC(=O)c2ccc(N)cc2)ccc1N=Nc1ccc2c(O)c(N=Nc3ccc(Cl)c(S(=O)(=O)O)c3)c(S(=O)(=O)O)cc2c1	MIC	H37Rv	BACTEC	-	-	≥12.5 µg/mL
O=C1C(=O)N(CCCCCN2CCN(c3ccnc4cc(Cl)ccc34)CC2)c2ccc(Cl)cc21	MIC99	MC2 6230	-	-	-	20.12 µM
N#CC1OC(COC(=O)c2ccccc2)C(OC(=O)c2ccccc2)C1OC(=O)c1ccccc1	MIC bound	H37Rv	BACTEC	-	-	>12.5 µg/mL
FC(F)(F)c1ccc(CSc2nc3ccccc3[nH]2)cc1	MIC	My 331/88	-	-	-	16 µM
Cc1noc(C)c1-n1sc(=O)n(-c2ccc(F)cc2)c1=O	MIC	H37Rv	broth dilution	-	-	25 µg/mL
O=C1Oc2ccccc2C(=O)Oc2ccccc2C(=O)Oc2ccccc2C(=O)Oc2ccccc21	inhibition	H37Rv	BACTEC	12.5 µg/mL	-	14%
Cc1cccc2[nH]c(=O)c3cccnc3[n+]12	MIC	H37Rv	-	-	-	>20 µg/mL
O=C1NC(=C(c2ccccc2)c2ccccc2)OC1=O	inhibition	H37Rv	BACTEC	12.5 µg/mL	-	17%
Cc1ccc(/C=C/C(=O)c2c(O)cc(C)oc2=O)cc1	MIC	H37Rv	visual reading	-	-	4 µg/mL
COC(=O)C1=C(C)NC(Nc2cccc(SC(F)(F)F)c2)=NC1c1ccc(Cl)cc1	MIC	XDR-TB	agar	-	-	>64 µg/mL
CC1=CC2(C)C=C(C)C3(OC(c4ccccc4)=C(C#N)C3=N2)C1=O	MIC bound	H37Rv	BACTEC	-	-	>12.5 µg/mL
NNC(=O)c1ccncc1	MIC	MDR-6233	resazurin	-	-	4 µg/mL
O=C(Nc1ccccc1[N+](=O)[O-])c1cccnc1Cl	MIC	H37Rv	-	-	-	>20 µg/mL
Nc1c(-c2nc3ccc4c(c3s2)C(=O)c2ccccc2C4=O)ccc2c1C(=O)c1ccccc1C2=O	MIC bound	H37Rv	BACTEC	-	-	>12.5 µg/mL
CO[C@H]1/C=C/O[C@@]2(C)Oc3c(C)c(O)c4c(O)c(c(/C=N/N5CCN(C)CC5)c(O)c4c3C2=O)NC(=O)/C(C)=C\C=C\[C@H](C)[C@H](O)[C@@H](C)[C@@H](O)[C@@H](C)[C@H](OC(C)=O)[C@@H]1C	MIC	H37Rv	-	-	-	>20 µg/mL
C=C1C[C@@]23CC[C@H]4[C@@](C)(CCC[C@@]4(C)C(=O)O)[C@@H]2CC[C@@H]1C3	MIC bound	H37Rv	BACTEC	-	-	>12.5 µg/mL
Nc1ncccc1/C=C/C(=O)c1ccc2c(ccc3ccccc32)c1	inhibition	-	-	12.5 µg/mL	-	74%
CC(=O)OCC1OC(N2C(S)=C(C#N)C(c3ccco3)C(C(C)=O)=C2c2ccccc2)C(OC(C)=O)C(OC(C)=O)C1OC(C)=O	inhibition	H37Rv	BACTEC	12.5 µg/mL	-	0%
Cn1c(=O)sn(-c2cccc3ccccc23)c1=O	MIC	H37Rv	broth dilution	-	-	12.5 µg/mL
CSC(=S)N/N=C\C(O)C(O)C(O)C(O)CO	MIC	H37Rv	BACTEC	-	-	8 µg/mL
CC(=O)c1cccc(NC(=O)/C=C/c2ccc([N+](=O)[O-])cc2)c1	MIC	H37Rv	visual reading	-	-	16 µg/mL
O=C(COc1cnccn1)N/N=c1\scc(-c2ccc(F)cc2)n1-c1ccc(Cl)cc1[N+](=O)[O-]	MIC	H37Rv	-	-	-	9 µg/mL
CCc1n[nH]c(=O)n1-c1ccncc1	inhibition	H37Rv	resazurin	6.25 µg/mL	-	-4%
O=C(N/N=C/c1ccccc1)c1ccncc1	MIC	ATTC 27294	resazurin	-	-	3.12 µg/mL
NC(=O)/C(=N\NC(=O)C[n+]1ccccc1)C1NC(=O)NC1=O.[Cl-]	inhibition	H37Rv	BACTEC	12.5 µg/mL	-	3%
O=C1C(=O)N(CCCCCCN2CCN(c3ccnc4cc(Cl)ccc34)CC2)c2ccc(F)cc21	MIC99	MC2 6230	-	-	-	<10.12 µM
O=[N+]([O-])c1ccc(Oc2cnc3nc(-c4ccc(Cl)cc4)[nH]c3c2)cc1	MIC80	H37Rv	resazurin / absorbance	-	-	1.9 µM
Cc1ccc(NC(=S)C(=S)Nc2ccc(C)cc2)cc1	MIC	-	-	-	-	15 µM
CN(C)c1ccc(/C=c2\s/c(=C/C(=O)c3ccccc3)[nH]c2=O)cc1	MIC	Clinical isolate	visual reading	-	-	>64 µg/mL
Cc1ccn2nc(C)c(C(=O)NCc3ccc(-c4ccc(OC(F)(F)F)cc4)nc3)c2c1	MIC	FQ-R1	resazurin	-	gyrB fluoroquinolone-resistant	0.04 µg/mL
O=C1c2ccccc2OC(c2cccc(Cl)c2)C1O	inhibition	H37Rv	-	12.5 µg/mL	-	63%

A second listing of 7 rows from above:

{"SMILES": "C=C(C)C1CC2(C)C(C)CC(O)CC2C(OC(=O)C=C(C)C)C1O", "read-out": "MIC bound", "strain or isolate": "H37Rv", "method": "resazurin", "result": ">6.25 µg/mL"}
{"SMILES": "O=C1C2C(C(=O)N1CCN1CCOCC1)[C@H]1C=C[C@@H]2O1", "read-out": "MIC bound", "strain or isolate": "H37Rv", "method": "BACTEC", "result": ">12.5 µg/mL"}
{"SMILES": "COc1ccc(C2Oc3cc(F)ccc3C(=O)C2OC(C)=O)cc1", "read-out": "EC50", "strain or isolate": "H37Rv", "result": "12.5 µg/mL"}
{"SMILES": "COc1ccc2c(/C=C/c3ccc(OCCN4CCCC4)cc3)c(-c3ccccc3)c(=O)oc2c1", "read-out": "MIC100", "strain or isolate": "H37Rv", "result": ">250 µg/mL"}
{"SMILES": "CO[C@H]1/C=C/O[C@@]2(C)Oc3c(C)c(O)c4c(O)c(c(/C=N/N5C(C)CN(Cc6ccccc6)CC5C)c(O)c4c3C2=O)NC(=O)/C(C)=C\\C=C\\[C@H](C)[C@H](O)[C@@H](C)[C@@H](O)[C@@H](C)[C@H](OC(C)=O)[C@@H]1C", "read-out": "MIC", "strain or isolate": "XDR-TB", "method": "agar", "result": ">64 µg/mL"}
{"SMILES": "N#CC1OC(COC(=O)c2ccccc2)C(OC(=O)c2ccccc2)C1OC(=O)c1ccccc1", "read-out": "MIC bound", "strain or isolate": "H37Rv", "method": "BACTEC", "result": ">12.5 µg/mL"}
{"SMILES": "Cc1cccc2[nH]c(=O)c3cccnc3[n+]12", "read-out": "MIC", "strain or isolate": "H37Rv", "result": ">20 µg/mL"}